Tested on: Lactic acid bacteria
Assay: Lactic acid bacteria population on pork loins
Type: in vivo
Details: plate count calculated as Log10 CFU/CM^2

Compound	Lactic acid bacteria population (300 treatment)	Lactic acid bacteria population (450 IU/kg treatment)
Cc1c(O)cc2c(c1C)O[C@](C)(CCC[C@H](C)CCC[C@H](C)CCCC(C)C)CC2 [Gamma-tocopherol, gamma-tocopherol]	2.13×10^2	1.07×10^1
Cc1c(C)c2c(c(C)c1O)CC[C@@](C)(CCC[C@H](C)CCC[C@H](C)CCCC(C)C)O2 [Alpha-tocopherol, alpha-tocopherol, reference compound]	–	6.84×10^0

Reference: patent US6977269B1, “Method of improving animal tissue quality” (Pioneer Hi-Bred International, Inc, priority 2001, dated 2005)
